Patent publication US9403763B2, “CD4-mimetic inhibitors of HIV-1 entry and methods of use thereof” (priority 2011, dated 2016)

Tests used:
HIV-1YU2 virus = assay: Single-round infection of Cf2Th-CD4/CCR5 cells by luciferase-expressing HIV-1YU2 virus; assay type: cell-based; details: background statement, virus not named
[1] = target: gp120 from the YU2 strain (Human immunodeficiency virus type 1 group M subtype B, UniProt P35961)

`CN1C(C)(C)CC(NC(=O)C(=O)Nc2ccc(Cl)c(F)c2)CC1(C)C` was tested, and the IC50 (HIV-1YU2 virus) was 89.9 µM, the “binding affinity compared to NBD-556 (1)” value [1] was “ten-fold enhancement in binding affinity” and the “change in heat capacity” value [1] was −738±36 cal/(K×mol). The “enthalpy change ΔH” value [1] was -19.7 kcal/mol and the “entropy change ΔS” value [1] was −37 cal/(K×mol).
